Measured values from several laboratories, pooled; numbers as filed in NIAID ChemDB.

Shared fields: target-level tests; agent: HIV-1; protein: Integrase; endpoint: IC50

ICn: concentration for n% inhibition. Rows are shuffled and stem from different studies.

NCCCCNCCCN ; read by: strand transfer ; value: >100 µM
CC(C)=C/C=C\[C@H](C)[C@H]1CC[C@]2(C)C[C@H]3[C@@H](C(=O)C[C@@]3(C)O)C(C=O)=C[C@@H]12 ; read by: strand transfer ; value: >120 µM
CC1COCCOC(=O)c2cccc(n2)C(=O)OCCOCC(C)O1 ; read by: 3′ processing ; value: >250 µM
CN(C)[C@@H]1C(=O)C(C(=O)NCNC2(C(=O)[O-])CCCC2)=C(O)[C@@]2(O)C(=O)C3=C(O)c4c(O)cccc4[C@@](C)(O)[C@H]3C[C@@H]12.[Na+] ; read by: 3′ processing ; strain or isolate: RF ; value: 1.3 µM
O=[N+]([O-])c1cccc([N+](=O)[O-])c1S(=O)(=O)c1ccccc1 ; read by: 3′ processing ; value: >100 µM
O=C1/C(=C/c2ccc(O)c([N+](=O)[O-])c2)CNC/C1=C\c1ccc(O)c([N+](=O)[O-])c1 ; read by: strand transfer ; value: >100 µM
O=C1O/C(=C(/C(=O)O)c2ccc(O)cc2)C(O)=C1c1ccc(O)c(O)c1 ; read by: strand transfer ; value: 4.4 µM
CN1C/C(=C\c2cc(O)c(O)c(O)c2)C(=O)/C(=C/c2cc(O)c(O)c(O)c2)C1 ; read by: strand transfer ; value: 0.6 µM
CSc1nc(Cl)c(Br)c(Sc2nc(N)nc3nc[nH]c23)n1 ; read by: 3′ processing ; value: >250 µM
COc1cc(/C=C/c2ccc3c(C(=O)O)cc(C(=O)O)c(O)c3n2)cc(O)c1O ; read by: 3′ processing ; value: 0.2 µM
O=C(/C=C/c1ccc(O)c(O)c1)O[C@@H]1C[C@](OC(=O)/C=C/c2ccc(O)c(O)c2)(C(=O)O)C[C@@H](O)[C@H]1O ; read by: strand transfer ; strain or isolate: LAI ; value: 0.56 ± 0.14 µg/mL
O=C(/C=C/c1ccc(O)c(O)c1)OCCc1ccccc1 ; read by: 3′ processing / substrate cleavage ; value: 220 µM
Cc1cc(O)c2c(c1O)C(=O)C13C(=C2O)C(=O)C2C(O)C1C1C(O)C3C(=O)C3=C(O)c4c(O)cc(C)c(O)c4C(=O)C321 ; read by: 3′ processing ; value: 4.7 µM
COc1cc(C)cc2c1C(=O)c1c(cc(O)c(O)c1O)C2=O ; read by: strand transfer ; value: 23 µM
Cc1c2ccncc2c(C)c2c1[nH]c1ccccc12 ; read by: strand transfer ; value: 39.3 µM
CN(C)C1C(=O)C(C(=O)NCNC2C(=O)N3C2SC(C)(C)C3C(=O)O)=C(O)C2(O)C(=O)C3=C(O)c4c(O)cccc4C(C)(O)C3CC12 ; read by: strand transfer ; strain or isolate: RF ; value: 2.8 µM
O=C(NCCCl)Nc1ccc(S(=O)(=O)c2ccc([N+](=O)[O-])cc2)cc1 ; read by: strand transfer ; value: >100 µM
COc1cc(NS(C)(=O)=O)ccc1Nc1c2ccccc2nc2ccccc12 ; read by: 3′ processing / substrate cleavage ; value: >100 µM
O=C1/C(=C/c2cc(O)c(O)c(O)c2)CN(Cc2ccccc2)C/C1=C\c1cc(O)c(O)c(O)c1 ; read by: strand transfer ; value: 1.1 µM
CN(C)C1C(=O)C(C(=O)NCNc2cccc(C(=O)O)c2C(=O)O)=C(O)C2(O)C(=O)C3=C(O)c4c(O)cccc4[C@](C)(O)[C@@H]3C[C@H]12 ; read by: strand transfer ; strain or isolate: RF ; value: 1.1 µM
COC(=O)C1=Cc2cc(OC)c(OC)cc2C(C2C=C(OC)C(OC)=CC2)C1C(=O)OC ; read by: 3′ processing ; value: >250 µM
CN(C)[C@@H]1C(=O)C(C(=O)NCNc2nc3n[nH]nc3c(=O)[nH]2)=C(O)[C@@]2(O)C(=O)C3=C(O)c4c(O)cccc4[C@@](C)(O)[C@H]3C[C@@H]12 ; read by: 3′ processing ; strain or isolate: RF ; value: 1.6 µM
CC[C@@]1(O)C(=O)OCc2c1cc1n(c2=O)Cc2cc3c(N)cccc3nc2-1 ; read by: strand transfer ; value: >100 µM
COc1cc(/C=C2\NC(=O)C3Cc4c(OC)c(C)c(OC)c(OC)c4C2N3C)c(OC)c(OC)c1OC ; read by: 3′ processing ; value: >250 µM
CC(C)CCCCCCCCCCCSCNc1ccc(S(=O)(=O)c2ccc(NCSCCCCCCCCCCCC(C)C)cc2)cc1 ; read by: strand transfer ; value: 90 µM
CC(C)=C/C=C\[C@H](C)[C@H]1CC[C@]2(C)C[C@H]3[C@H](C(=O)C[C@@]3(C)O)C(C=O)=C[C@@H]12 ; read by: absorbance ; value: 23 µM
Nc1ccc(S(=O)(=O)c2ccc(N)c([N+](=O)[O-])c2)cc1[N+](=O)[O-] ; read by: strand transfer ; value: 100 µM
CC(C)c1ccc(C(c2ccc(OCC(=O)O)cc2)c2ccc(C(C)C)cc(=O)c2O)c(O)c(=O)c1 ; read by: strand transfer ; strain or isolate: RF ; value: 2.3 µM
Cc1cc([N+](=O)[O-])c(S(=O)(=O)c2ccccc2)c([N+](=O)[O-])c1 ; read by: 3′ processing ; value: >100 µM
O=C(O)/C=C/c1ccc(O)c(O)c1 ; read by: strand transfer ; strain or isolate: LAI ; value: >50 µg/mL
O=[N+]([O-])c1cc(S(=O)(=O)c2ccc(S)c([N+](=O)[O-])c2)ccc1S ; read by: strand transfer ; value: 2.5 µM
COc1cccc2c1C(=N)c1c(O)c3c(c(O)c1C2=O)C[C@@](O)(C(C)=O)C[C@@H]3O[C@H]1C[C@H](N)[C@H](O)[C@H](C)O1 ; read by: 3′ processing / substrate cleavage ; value: 20.4 µM
CCOC(=O)CC1C/C(=C\c2ccc(O)c(O)c2)C(=O)/C(=C/c2ccc(O)c(O)c2)C1 ; read by: strand transfer ; value: 4.3 µM
COC(=O)C(=O)c1c(-c2ccc(Cl)c(Cl)c2)[nH]c2[nH]n(-c3ccccc3)c(=O)c2c1=O ; read by: 3′ processing ; value: 143 µM
CCN(CCO)CCCC(C)Nc1ccnc2cc(Cl)ccc12 ; read by: 3′ processing / substrate cleavage ; value: >100 µM

Again, the opening 4 rows:

{"compound": "NCCCCNCCCN", "read by": "strand transfer", "value": ">100 µM"}
{"compound": "CC(C)=C/C=C\\[C@H](C)[C@H]1CC[C@]2(C)C[C@H]3[C@@H](C(=O)C[C@@]3(C)O)C(C=O)=C[C@@H]12", "read by": "strand transfer", "value": ">120 µM"}
{"compound": "CC1COCCOC(=O)c2cccc(n2)C(=O)OCCOCC(C)O1", "read by": "3′ processing", "value": ">250 µM"}
{"compound": "CN(C)[C@@H]1C(=O)C(C(=O)NCNC2(C(=O)[O-])CCCC2)=C(O)[C@@]2(O)C(=O)C3=C(O)c4c(O)cccc4[C@@](C)(O)[C@H]3C[C@@H]12.[Na+]", "read by": "3′ processing", "strain or isolate": "RF", "value": "1.3 µM"}